Assay results reported in article doi:10.1101/2020.01.16.909523 (bioRxiv, 2020).

Biological target: PE5mt-PPE4mt heterodimer (His6 tag cleaved) (Mycobacterium tuberculosis)
Test: SEC-MALS

B1: EspG3mt (natural protein)
chain: not shown
stoichiometry N: 1
